Results on 1 compound are retold here after paper PMC5361215 (Scientific Reports, 2017).

Sequences of proteins named here, by UniProt entry; tags and fusion partners are left off. Residues count along the entry.
UniProt P06828, 19-539 K108G: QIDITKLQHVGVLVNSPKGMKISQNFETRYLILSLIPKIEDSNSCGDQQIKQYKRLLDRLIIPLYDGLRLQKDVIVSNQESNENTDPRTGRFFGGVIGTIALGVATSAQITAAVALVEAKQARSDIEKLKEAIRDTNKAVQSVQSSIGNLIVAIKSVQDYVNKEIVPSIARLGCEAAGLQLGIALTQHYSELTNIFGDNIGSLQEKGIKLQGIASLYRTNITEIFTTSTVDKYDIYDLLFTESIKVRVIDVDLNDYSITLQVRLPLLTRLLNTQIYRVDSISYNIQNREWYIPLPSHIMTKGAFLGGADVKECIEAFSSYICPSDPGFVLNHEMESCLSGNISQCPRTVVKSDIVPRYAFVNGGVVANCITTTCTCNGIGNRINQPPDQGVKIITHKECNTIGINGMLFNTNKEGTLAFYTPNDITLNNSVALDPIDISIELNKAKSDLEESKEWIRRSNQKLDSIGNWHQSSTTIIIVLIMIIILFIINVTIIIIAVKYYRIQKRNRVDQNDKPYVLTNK

This experiment deals with uncleaved HPIV3 F (K108G) (Human parainfluenza 3 virus, UniProt P06828, K108G). Nature of the experiment: Peptide bridging assay: RBC retention on cells expressing HN and uncleaved F. The following applies: 1 μM peptide, 37 °C 1 h, then zanamivir; 293T cells with HN and F csm K108G; three experiments. The experiment is classed as cell-based.

In the case of `CC[C@H](C)[C@H](NC(=O)[C@H](CO)NC(=O)[C@H](CC(=O)O)NC(=O)[C@H](CC(C)C)NC(=O)[C@H](CCCCN)NC(=O)CNC(=O)[C@H](CC(N)=O)NC(=O)[C@H](CO)NC(=O)[C@H](CCCNC(=N)N)NC(=O)[C@H](CCCNC(=N)N)NC(=O)[C@@H](NC(=O)[C@H](Cc1c[nH]c2ccccc12)NC(=O)[C@H](CCC(=O)O)NC(=O)[C@H](CCCCN)NC(=O)[C@H](CO)NC(=O)[C@H](CCC(=O)O)NC(=O)[C@H](CCC(=O)O)NC(=O)[C@H](CC(C)C)NC(=O)[C@H](CC(=O)O)NC(=O)[C@H](CO)NC(=O)[C@H](CCCCN)NC(=O)[C@H](C)NC(=O)[C@H](CCCCN)NC(=O)[C@H](CC(N)=O)NC(=O)[C@H](CC(C)C)NC(=O)[C@@H](NC(=O)[C@@H](NC(=O)[C@H](CO)NC(=O)[C@@H](NC(=O)[C@H](CC(=O)O)NC(=O)[C@@H](NC(=O)[C@@H]1CCCN1C(=O)[C@H](CC(=O)O)NC(=O)[C@H](CC(C)C)NC(=O)[C@H](C)NC(=O)[C@@H](NC(C)=O)C(C)C)[C@@H](C)CC)[C@@H](C)CC)[C@@H](C)CC)C(C)C)[C@@H](C)CC)C(=O)NCC(=O)N[C@@H](CO)C(=O)NCC(=O)N[C@@H](CO)C(=O)NCC(=O)N[C@@H](CSCC(=O)O[C@H]1CC[C@@]2(C)C(=CC[C@H]3[C@@H]4CC[C@H]([C@H](C)CCCC(C)C)[C@@]4(C)CC[C@@H]32)C1)C(N)=O` [VG-Chol], the “RBCs irreversibly bound (peptide bridging)” value was 35%.
